Assay results published in patent publication EP4821928A1, “BICYCLIC HETEROCYCLIC COMPOUND AND FUNGICIDE FOR AGRICULTURAL AND HORTICULTURAL USE CONTAINING SAME AS ACTIVE INGREDIENT” (dated 2026).

Tests used:
[1] = test system: Magnaporthe grisea; test: Rice blast disease pot test (Test Example A); settings: for control value: Test Example A, rice blast disease pot test; for Rice blast disease pot test (control value): 250 ppm sprayed, 2.5 ml/pot, rice variety Sachikaze, degree of disease development 6 to 8 days after inoculation
[2] = test system: Botrytis cinerea; test: Tomato gray mold pot test (Test Example B); settings: for control value: Test Example B, tomato gray mold pot test; for Tomato gray mold pot test (control value): 250 ppm sprayed, 2.5 ml/pot, tomato variety Oogata Fukuju, degree of disease development 2 to 3 days after inoculation
[3] = test system: Fusarium blight fungus (Fusarium graminearum); test: Fusarium blight anti-germ test (Test Example D); settings: for rate of inhibition: Test Example D, Fusarium blight anti-germ test; for Fusarium blight anti-germ test (rate of inhibition): 50 ppm/well, Czapek-dox broth, 25°C for 3 days, absorbance 600 nm
[4] = test system: Speckled leaf blotch fungus (Septoria tritici); test: Speckled leaf blotch anti-germ test (Test Example F); settings: for rate of inhibition: Test Example F, speckled leaf blotch anti-germ test; for Speckled leaf blotch anti-germ test (rate of inhibition): 50 ppm/well, Czapek-dox broth, 25°C for 3 days, absorbance 600 nm
[5] = test system: Gray mold fungus (Botrytis cinerea); test: Gray mold anti-germ test (Test Example C); settings: for rate of inhibition: Test Example C, gray mold anti-germ test; for Gray mold anti-germ test (rate of inhibition): 50 ppm/well, Czapek-dox broth, 25°C for 3 days, absorbance 600 nm
[6] = test system: Anthracnose fungus (Glomerella cingulata); test: Anthracnose anti-germ test (Test Example E); settings: for rate of inhibition: Test Example E, anthracnose anti-germ test; for Anthracnose anti-germ test (rate of inhibition): 50 ppm/well, Czapek-dox broth, 25°C for 3 days, absorbance 600 nm

Question: Which results are given for `CCCCC1(CC)N=C(c2cnn3cccc(C)c23)c2ccccc2O1` (stereo not drawn)?
Answer: control value [1]: H (H represents a control value or rate of inhibition of larger than 50%); control value [2]: H (H represents a control value or rate of inhibition of larger than 50%); rate of inhibition [3]: L (L represents a control value or rate of inhibition of 50% or less); rate of inhibition [4]: L (L represents a control value or rate of inhibition of 50% or less); rate of inhibition [5]: H (H represents a control value or rate of inhibition of larger than 50%); rate of inhibition [6]: H (H represents a control value or rate of inhibition of larger than 50%)

Question: With `Cc1cccc2c1ncn2C1=NC(C)(C)Sc2ccccc21` as the compound, how does the “Rice blast disease pot test (control value)” value (“Rice blast disease pot test” for short) [1] read?
Answer: H (H represents a control value or rate of inhibition of larger than 50%)

Question: What about the “Tomato gray mold pot test (control value)” value (shortened to “Tomato gray mold pot test”) [2] of the same compound?
Answer: H (H represents a control value or rate of inhibition of larger than 50%)

Question: What about the “Fusarium blight anti-germ test (rate of inhibition)” value [3] of the same compound?
Answer: H (H represents a control value or rate of inhibition of larger than 50%)

Question: And the “Speckled leaf blotch anti-germ test (rate of inhibition)” value [4]?
Answer: H (H represents a control value or rate of inhibition of larger than 50%)

Question: And the “Gray mold anti-germ test (rate of inhibition)” value [5]?
Answer: H (H represents a control value or rate of inhibition of larger than 50%)

Question: And the “Anthracnose anti-germ test (rate of inhibition)” value [6]?
Answer: H (H represents a control value or rate of inhibition of larger than 50%)

Question: With `COc1cccc2c1ncn2C1=NC(C)(C)Oc2c(C)cccc21` as the compound, how does the “Rice blast disease pot test” value [1] read?
Answer: H (H represents a control value or rate of inhibition of larger than 50%)

Question: What about the “Tomato gray mold pot test” value [2] of the same compound?
Answer: H (H represents a control value or rate of inhibition of larger than 50%)

Question: What about the “Fusarium blight anti-germ test (rate of inhibition)” value [3] of the same compound?
Answer: L (L represents a control value or rate of inhibition of 50% or less)

Question: What about the “Speckled leaf blotch anti-germ test (rate of inhibition)” value [4] of the same compound?
Answer: L (L represents a control value or rate of inhibition of 50% or less)

Question: What about the “Gray mold anti-germ test (rate of inhibition)” value [5] of the same compound?
Answer: H (H represents a control value or rate of inhibition of larger than 50%)

Question: And the “Anthracnose anti-germ test (rate of inhibition)” value [6]?
Answer: H (H represents a control value or rate of inhibition of larger than 50%)

Question: `CCCC1(C)N=C(n2cnc3c(C)c(Br)cnc32)c2ccccc2O1` (stereo not drawn) was tested. Which control value [1] did it give?
Answer: H (H represents a control value or rate of inhibition of larger than 50%)

Question: What about the control value [2] of the same compound?
Answer: H (H represents a control value or rate of inhibition of larger than 50%)

Question: And the rate of inhibition [3]?
Answer: H (H represents a control value or rate of inhibition of larger than 50%)

Question: And the rate of inhibition [4]?
Answer: H (H represents a control value or rate of inhibition of larger than 50%)

Question: What about the rate of inhibition [5] of the same compound?
Answer: H (H represents a control value or rate of inhibition of larger than 50%)

Question: And the rate of inhibition [6]?
Answer: H (H represents a control value or rate of inhibition of larger than 50%)

Question: For `CC1(C)N=C(c2cnn3ccccc23)c2ccccc2O1`, which “Rice blast disease pot test” value [1] is on record?
Answer: H (H represents a control value or rate of inhibition of larger than 50%)

Question: What about the “Tomato gray mold pot test” value [2] of the same compound?
Answer: H (H represents a control value or rate of inhibition of larger than 50%)

Question: And the “Fusarium blight anti-germ test (rate of inhibition)” value [3]?
Answer: H (H represents a control value or rate of inhibition of larger than 50%)

Question: What about the “Speckled leaf blotch anti-germ test (rate of inhibition)” value [4] of the same compound?
Answer: H (H represents a control value or rate of inhibition of larger than 50%)

Question: And the “Gray mold anti-germ test (rate of inhibition)” value [5]?
Answer: H (H represents a control value or rate of inhibition of larger than 50%)

Question: And the “Anthracnose anti-germ test (rate of inhibition)” value [6]?
Answer: H (H represents a control value or rate of inhibition of larger than 50%)

Question: Which “Rice blast disease pot test” value [1] does the source give for `Cc1c(Cl)ccc2c1ncn2C1=NC(C)(C)Oc2c(Cl)cccc21` here?
Answer: H (H represents a control value or rate of inhibition of larger than 50%)

Question: And the “Tomato gray mold pot test” value [2]?
Answer: H (H represents a control value or rate of inhibition of larger than 50%)

Question: What about the “Fusarium blight anti-germ test (rate of inhibition)” value [3] of the same compound?
Answer: L (L represents a control value or rate of inhibition of 50% or less)

Question: What about the “Speckled leaf blotch anti-germ test (rate of inhibition)” value [4] of the same compound?
Answer: L (L represents a control value or rate of inhibition of 50% or less)

Question: What about the “Gray mold anti-germ test (rate of inhibition)” value [5] of the same compound?
Answer: L (L represents a control value or rate of inhibition of 50% or less)

Question: And the “Anthracnose anti-germ test (rate of inhibition)” value [6]?
Answer: H (H represents a control value or rate of inhibition of larger than 50%)
